PubChem BioAssay AID624099, ICCB-Longwood, 2012

Screen: 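Host factors E2 relies on to silence an HPV18 LCR reporter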 (primary screen)
Cells: human C33A cervical carcinoma cells (HPV-negative) stably expressing BPV1 E2 and an HPV18 LCR luciferase reporter
Reagent: siRNA pool against human genes, 40 nM
Time to read-out: 72 h
Detection: 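HPV18 LCR reporter light per well, converted to plate-wise z-scores that exclude control wells, and averaged over triplicate plates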
Direction: mean z-score and z-score: higher = stronger reporter signal, weaker E2 silencing
Hit rule: 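Mean z ≥ 2 together with z ≥ 2 in two or more of the three replicates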
This is a random part of about 21,000 deposited reagents. 497 of all reagents (2.4%) count as active. 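Higher z means weaker E2 silencing; only reporter increases were scored, and knock-downs that hurt cell survival may mask genuine repressor factors.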 Entries without a mark were called inactive. The numbers tell different reagents against one gene apart.

target gene,reagent,mean z-score,"z-score, replicate A","z-score, replicate B","z-score, replicate C"
ADK,1,0.76,0.52,0.59,1.16
NOVA1-DT,1,0.06,0.29,-0.14,0.03
ENAH,1,0.08,-0.02,0.05,0.22
H3-3B,1,0.37,0.92,0.02,0.18
KIF24,1,0.33,0.25,0.39,0.36
MTCL2,1,1.34,1.14,1.52,1.36
MTCL2,2,0.34,0.23,0.42,0.38
ZNF692,1,-0.06,0.03,-0.09,-0.11
MICAL3,1,0.35,0.34,0.49,0.23
MICAL3,2,1.86,2.33,1.9,1.36
PLCH1,1,1.36,1.32,1.29,1.46
GAS1,1,0.16,0.04,0.16,0.29
GABRE,1,-0.22,0.01,-0.37,-0.3
ZMYM1,1,0.29,0.68,0.19,0.02
ATXN7,1,3.15 (active),3.16,3.07,3.22
KLHL2,1,1.21,1.37,1.54,0.74
GAL3ST4,1,1.16,1.22,1.58,0.68
LPP,1,0.81,0.94,0.38,1.11
PYGO1,1,-0.16,-0.25,-0.1,-0.11
PSMC1P4,1,-0.17,-0.09,-0.13,-0.28
LINC00668,1,0.77,0.39,0.75,1.15
STAC2,1,-1.39,-1.37,-1.31,-1.5
GMPR,1,0.18,0.35,0.33,-0.15

Entries above called active:
target gene,reagent,mean z-score,"z-score, replicate A","z-score, replicate B","z-score, replicate C"
ATXN7,1,3.15 (active),3.16,3.07,3.22
